# Results of single-concentration screens

Measurements from “University of Dundee, Small-Polar-MMV Screening Library” (2021), ChEMBL document CHEMBL3988442.

Values are the deposited “Percent Effect”, in %. How 0% and 100% were set is not recorded. Most values in the screen are low, and negative values occur. The entries come from a sample that favours strong results. A dash means the value is not listed here; it may have been measured.

Mtb cholesterol medium: 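Whole-cell growth test on Mycobacterium tuberculosis, read after 4 days in a medium based on cholesterol and the lipid DPPC; the read-out is not stated. Concentration: 500 µM. The record gives no direction; compounds that gave an IC50 in retests scored well above the rest, so higher reads as more growth inhibition. About 18,000 compounds were tested under these conditions; 5% (about 900) showed 50% or more at least once.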
Mtb glucose medium: 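Phenotypic screen: M. tuberculosis growth, glucose 7H9 medium, 3 days; the read-out is not stated. Concentration: 500 µM. Higher reads as more growth inhibition (inferred: compounds with an IC50 in retests scored well above the rest). About 18,000 compounds were tested under these conditions; 7.9% (about 1,400) showed 50% or more at least once.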

| # | SMILES | Mtb cholesterol medium | Mtb glucose medium |
|---|---|---|---|
| 1 | `CS(=O)(=O)Nc1cccc(C(=O)Nc2ccccc2)c1` | - | 59.56 |
| 2 | `CCC(C)(CCO)NC(=O)c1ccc[nH]1` (centres unmarked) | 5.16 | - |
| 3 | `CC(C)Sc1nc(-c2ccccn2)no1` | 72.26 | 63.43 |
| 4 | `Cc1cccc(NC(=O)CN(C)C2CCS(=O)(=O)C2)n1` (centres unmarked) | - | -3.232 |
| 5 | `Cc1ccc(C(=O)N2CCC(C(C)O)CC2)c(O)c1` (centres unmarked) | - | 11.43 |
| 6 | `c1cc2c(cc1CNc1nnc(C3CC3)o1)OCCO2` | 69.69 | 70.27 |
| 7 | `Cc1ccncc1NC(=O)Nc1cnccc1C` | -13.73 | -3.507 |
| 8 | `Cc1ccc(NC(=O)NCCS(=O)(=O)N(C)C)cc1Cl` | 89.07 | 80.53 |
| 9 | `O=S(=O)(CC(O)CNCc1ccccn1)c1cccs1` (centres unmarked) | 27.18 | - |
| 10 | `COc1ccnc(C(=O)N2CCCC(CCCO)C2)c1` (centres unmarked) | 0.3974 | - |
| 11 | `NCc1cc(OC2CCC2)ccn1` | - | 20.23 |
| 12 | `CC(=O)N1CCC(NC(=O)Cc2ccccc2C)CC1` | - | 9.777 |
| 13 | `COc1ccccc1-c1cc(N)no1` | - | 27.08 |
| 14 | `CCc1nnc(N)o1` | - | -6.997 |
| 15 | `CNC(=O)c1cc(-c2ccccc2C)n[nH]1` | - | 66 |
| 16 | `CN(C)CCn1nccc1N` | - | 13.11 |
| 17 | `CN(C)CCN(C)c1cc(C2CC(O)C2)ncn1` (centres unmarked) | 4.867 | - |
| 18 | `CC(=O)NCCNS(=O)(=O)c1cc(C)ccc1C` | 21.01 | - |
| 19 | `NS(=O)(=O)c1ccc2c(c1)N(Cc1ccon1)CC2` | - | -2.872 |
| 20 | `CC[C@@H](N)c1ccc(F)cc1` | 5.722 | 13.06 |
| 21 | `Cc1ccc(NC(=O)CN2CCCC2)cc1` | 36.09 | - |
| 22 | `OCC(O)CSc1ncn(-c2ccccc2)n1` (centres unmarked) | -4.989 | - |
| 23 | `COc1ccccc1CCNC(=O)c1ccnn1C` | - | 47.32 |
| 24 | `CCNCc1nc(-c2ccccc2)no1` | 55.22 | 60.38 |
| 25 | `CN(CCCNC(=O)C1CNCCO1)c1ccccc1` (centres unmarked) | 7.892 | - |
| 26 | `O=c1[nH]c(-c2ccncc2)nc2c1CCC2` | - | -8.989 |
| 27 | `CCOc1cc(CNC)cc(Cl)c1OCC(N)=O` | - | 13.58 |
| 28 | `Cn1ccsc1=NC(=O)CNc1ccc(C#N)cc1` | - | -6.622 |
| 29 | `CC(CCc1ccccc1)CC(=O)N(C)CC(N)=O` (centres unmarked) | 41.18 | 44.47 |
| 30 | `Cn1cnnc1CCNC(=O)Cc1ccsc1` | - | 1.056 |
| 31 | `CNCc1cnc(C)cn1` | - | 7.914 |
| 32 | `CC(N)C(=O)Nc1cccc(N2CCCC2)c1` (centres unmarked) | - | 43.94 |
| 33 | `CCn1ccc(C(=O)NCCc2noc(COC)n2)n1` | 6.831 | - |
| 34 | `CN1C(=O)Cc2cc(S(=O)(=O)N3CCCCC3)ccc21` | -4.779 | - |
| 35 | `Nc1ccc(CNc2ccc(C(F)(F)F)nn2)cn1` | 21.1 | 69.68 |
| 36 | `Nc1ncccc1CN1CCC(N2CCCCC2)C1` (centres unmarked) | -39.26 | - |
| 37 | `CN(CCc1ccccn1)CCN1CCCC1=O` | 12.66 | - |
| 38 | `Cc1ccc(C(=O)NCC(=O)NC(C)(C)C)c(O)c1` | - | 50.03 |
| 39 | `CN1CCCCC1CC(=O)NCCc1ccc(O)cc1` (centres unmarked) | -1.286 | - |
| 40 | `CN(C)c1cc(CNC(=O)CC2C=CCC2)ccn1` (centres unmarked) | 5.573 | - |
| 41 | `O=C(NC1CCN(C(=O)C2CC2)CC1)c1cccs1` | - | 22.36 |
| 42 | `NS(=O)(=O)c1ccc(OCC(F)(F)F)nc1` | 3.439 | 4.259 |
| 43 | `COc1ccc(NC(=O)N2CCN(C)CC2)cn1` | - | -2.539 |
| 44 | `Cc1cc(C(=O)NC2CCC(=O)N(C)C2)c(C)o1` (centres unmarked) | - | 1.283 |
| 45 | `CNCc1csc(C(C)OC)n1` (centres unmarked) | - | 7.558 |
| 46 | `CCN(CC)C(=O)COC(=O)c1c(C)nsc1N` | - | -11.44 |
| 47 | `CC1=NOC(CNS(=O)(=O)c2cccc(C)c2)C1` (centres unmarked) | -19.99 | - |
| 48 | `COc1ccnc(NCc2ccc(CO)c(F)c2)n1` | - | 50.68 |
| 49 | `NC(=O)CSc1nnc(-c2cc(Br)ccc2O)[nH]1` | 70.39 | 78.95 |
| 50 | `COC(=O)CN1CCN(c2cccc(F)c2C#N)CC1` | - | 12.6 |
| 51 | `CCn1cnnc1CNCc1c[nH]nc1C` | 4.834 | - |
| 52 | `c1ccc(COCc2nc(C3CCCNC3)no2)cc1` (centres unmarked) | 7.416 | 17.66 |
| 53 | `Cc1ccnc(NCCOCCS(C)(=O)=O)c1` | -14.19 | -7.594 |
| 54 | `O=C(N1CCNCC1)C1(c2ccc(F)cc2F)CCC1` | - | 4.341 |
| 55 | `O=C(NC1CCC(O)CC1)N1CCN(CC2CC2)CC1` (centres unmarked) | 3.287 | - |
| 56 | `CNc1cc(C(=O)NCc2csc(N(C)C)n2)ccn1` | 5.854 | 25.76 |
| 57 | `CN(CC(N)=O)Cc1csc(Br)c1` | 13.65 | - |
| 58 | `Cn1c(=O)c2c(nc(Cl)n2CCCC#N)n(C)c1=O` | 61.57 | 6.581 |
| 59 | `CN(C)C1(CNC(=O)Cc2cccnc2)CCOCC1` | -6.103 | - |
| 60 | `CNS(=O)(=O)c1ccccc1S(=O)(=O)NC1CCOC1` (centres unmarked) | - | 2.926 |
| 61 | `N#Cc1cccc(CS(=O)(=O)N[C@H]2CCCNC2)c1` | - | 9.475 |
| 62 | `N[C@@H]1CCN(Cc2ccc(F)c(C(F)(F)F)c2)C[C@H]1O` | 29.54 | 48.94 |
| 63 | `NCCCNS(=O)(=O)CCc1ccccc1` | - | 5.239 |
| 64 | `CN(CC(=O)NCCC#N)Cc1ccccc1Cl` | 0.8093 | - |
| 65 | `CCc1ccsc1C(N)=O` | -12.36 | - |
| 66 | `COc1cccc(NC(=O)CN(CC(N)=O)C(C)C)c1` | 3.833 | - |
| 67 | `CC(C)CNC(=O)CNC(=O)c1ccc(Br)c(O)c1` | - | -2.768 |
| 68 | `CC(NS(=O)(=O)c1ccccc1)c1ccccn1` (centres unmarked) | -9.69 | 28.49 |
| 69 | `COCCS(=O)(=O)Cc1cnn(-c2ccccc2)c1` | - | 37.69 |

Repeated from the top, 5 entries:

SMILES,Mtb cholesterol medium,Mtb glucose medium
CS(=O)(=O)Nc1cccc(C(=O)Nc2ccccc2)c1,-,59.56
CCC(C)(CCO)NC(=O)c1ccc[nH]1 (centres unmarked),5.16,-
CC(C)Sc1nc(-c2ccccn2)no1,72.26,63.43
Cc1cccc(NC(=O)CN(C)C2CCS(=O)(=O)C2)n1 (centres unmarked),-,-3.232
Cc1ccc(C(=O)N2CCC(C(C)O)CC2)c(O)c1 (centres unmarked),-,11.43